## Library screen at single concentrations

Measurements from “University of Dundee, Small-Polar-MMV Screening Library” (2021), ChEMBL document CHEMBL3988442.

Results are given as percent effect. How 0% and 100% were set is not recorded. Most values in the screen are low, and negative values occur. Many other results are left out here, so strong results are more common than in the screen.

Mtb glucose medium: 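Whole-cell growth test on Mycobacterium tuberculosis, read after 3 days in glucose-containing 7H9 medium; the read-out is not stated. Compounds at 500 µM. The record gives no direction; compounds that gave an IC50 in retests scored well above the rest, so higher reads as more growth inhibition. Size under these conditions: about 18,000 compounds, about 1,400 of them at 50% or above in at least one test.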
Mtb cholesterol medium: 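Phenotypic screen: M. tuberculosis growth, cholesterol and DPPC medium, 4 days; the read-out is not stated. Compounds at 500 µM. The record gives no direction; compounds that gave an IC50 in retests scored well above the rest, so higher reads as more growth inhibition. Of about 18,000 compounds tested this way, about 900 (5%) reached 50% or more in at least one test.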

With CCNC(C)c1cccnc1 (centres unmarked) the screen gave Mtb glucose medium: -4.182%. Result for CSCCC(OC(=O)c1ccc(F)cc1)C(N)=O (centres unmarked) was Mtb glucose medium: 13.47%. Result for CC1CCN(CCC(=O)Nc2sccc2C(N)=O)CC1 was Mtb glucose medium: 46.72%; Mtb cholesterol medium: 33.21%. With Cc1cccc(NCC2CCCCN2)n1 (centres unmarked) the screen gave Mtb glucose medium: 14.2%. Result for COc1cccc(CS(=O)(=O)Nc2ccc(C)nc2)c1 was Mtb glucose medium: 57.43%; Mtb cholesterol medium: 48.92%. CC(C)CNC(=O)c1cc(F)cc(F)c1 gave Mtb glucose medium: 1.785%; Mtb cholesterol medium: 6.02%. With CCNS(=O)(=O)C1CCN(Cc2c(F)cccc2F)C1 (centres unmarked) the screen gave Mtb cholesterol medium: 14.88%.

CN(C)c1nccc(N(C)CCn2cccn2)n1 gave Mtb glucose medium: 2.626%. For Cc1c(C(=O)NC2CCN(S(C)(=O)=O)CC2)cnn1C the result was Mtb cholesterol medium: -5.288%. For COCCN(C)CCCNC(=O)c1cnccn1 the result was Mtb glucose medium: 8.04%. NC(=O)CN1CCC(OCCCc2ccccc2)C1 (centres unmarked) gave Mtb glucose medium: 73.81%; Mtb cholesterol medium: 75.13%. NCc1cccc2cc[nH]c12 read Mtb glucose medium: 64.15%; Mtb cholesterol medium: 52.88%. COCCN(c1ccncc1)S(=O)(=O)c1cccs1 gave Mtb glucose medium: 5.186%. CN(C)C(=O)OC1CCNCC1 read Mtb glucose medium: -4.282%.

For CC(C)(CC(N)=O)NCc1nc(-c2ccccc2)no1 the result was Mtb glucose medium: 28.39%; Mtb cholesterol medium: 18.64%. Cc1nn(C)c(N(C)C)c1CNCCc1cnn(C)c1 gave Mtb cholesterol medium: -8.881%. With O=S(=O)(Cc1ccccn1)Cc1ccccc1Cl the screen gave Mtb cholesterol medium: 14.52%. CS(=O)(=O)CCN1CCC(C(N)=O)CC1 gave Mtb glucose medium: -18.98%. For COC(=O)C(C)(C)CNC(=O)c1cc(C#N)c[nH]1 the result was Mtb glucose medium: 1.933%. NC(=O)C1CNc2ccccc21 (centres unmarked) read Mtb glucose medium: 1.623%. With O=C(Cc1ccc(O)c(Cl)c1)NC[C@@H]1C[C@H](F)CN1 the screen gave Mtb cholesterol medium: -6.004%.

Result for CN1CC(CN)OC1=O (centres unmarked) was Mtb glucose medium: 7.779%. With CCc1nc(CNc2ccc(C#N)nc2)cs1 the screen gave Mtb glucose medium: 66.74%; Mtb cholesterol medium: 64.56%. For Cc1c(C(=O)NCC2CC2)cnn1C the result was Mtb glucose medium: 44.6%. With CC1=NOC(CNS(=O)(=O)c2cccc(C)c2)C1 (centres unmarked) the screen gave Mtb cholesterol medium: -19.99%. Result for CCN1CCCC1CNC(=O)c1ccc(C)o1 (centres unmarked) was Mtb glucose medium: 25.51%. With CC(C)S(=O)(=O)N(C)CC(=O)N(C)Cc1cccs1 the screen gave Mtb cholesterol medium: 8.289%. NC1CCCN(S(=O)(=O)c2ccc(Br)cc2)C1 (centres unmarked) gave Mtb glucose medium: 42.12%.

With O=C(NCC1(O)CCOCC1)Nc1cccc(F)c1 the screen gave Mtb glucose medium: 13.78%.

3 of the entries, repeated:

{"structure": "CN(C)c1nccc(N(C)CCn2cccn2)n1", "Mtb glucose medium": 2.626}
{"structure": "Cc1cccc(NCC2CCCCN2)n1", "stereo": "centres unmarked", "Mtb glucose medium": 14.2}
{"structure": "NC(=O)C1CNc2ccccc21", "stereo": "centres unmarked", "Mtb glucose medium": 1.623}